PubChem BioAssay AID504761 – Drosophila RNAi Screening Center – 2011
Screen: 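Genome-wide fly cell screen for genes dengue virus requires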 (primary screen). System: D.Mel-2 cells from Drosophila. Reagent: long dsRNA against Drosophila genes. Conditions: infection with dengue virus type 2; dose and infection time not stated. Detection: 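Per well on two replicate plates, imaging gave the percent of cells positive for viral envelope protein, ranked by infection, and a nuclear count of cells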. Scale: infection score: higher = more virus-infected cells; cell count: higher = more cells in the well. Call rule: 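Very low infection ranking in both replicate wells (chance probability at most 0.065), then a retest showing infection dropped 1.5-fold or more at p below 0.05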. Meaning of the calls: active = confirmed: knock-down lowers infection; inactive = not picked or not confirmed.
The screen tested about 22,000 reagents; shown is an unselected part of those that have a named target and a result. In the full data, 116 (0.52%) are marked active. 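Calls depend on retest data that are not deposited; infection was ranked per plate without normalising between plates; the unit of the infection score is not given.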 Raw values are not corrected between plates. The numbers tell different reagents against one gene apart. Names joined by + are all predicted targets of the reagent. Not stated in the record: the amount of reagent, the time to read-out.

| target | reagent | infection score, replicate 1 | infection score, replicate 2 | cell count, replicate 1 | cell count, replicate 2 | Outcome |
| --- | --- | --- | --- | --- | --- | --- |
| CG8468 | 1 | 5.44 | 10.3 | 7083 | 6741 | inactive |
| CG8468 | 2 | 4.15 | 5.41 | 6138 | 6231 | inactive |
| CG6415 | 1 | 35.5 | 8.09 | 5350 | 5602 | inactive |
| CG6415 | 2 | 21 | 6.3 | 6118 | 6395 | inactive |
| CG14269 | 1 | 4.24 | 11.3 | 6598 | 4055 | inactive |
| CG17249 | 1 | 13.1 | 20.3 | 6052 | 5594 | inactive |
| Cog6 | 1 | 14.3 | 4.98 | 5841 | 6229 | inactive |
| Cog6 | 2 | – | 16.8 | 339 | 2921 | inactive |
| CG2790 | 1 | 4.38 | 8.56 | 6574 | 6413 | inactive |
| CG2790 | 2 | 4.67 | 2.59 | 6301 | 6613 | inactive |
| CG8132 | 1 | 8.56 | 4.65 | 6417 | 7405 | inactive |
| CG5172 | 1 | 3.26 | 4.31 | 6265 | 6056 | inactive |
| CG5172 | 2 | 8.26 | 7.66 | 5668 | 4401 | inactive |
| hpo | 1 | 18.1 | 8.92 | 5823 | 1771 | inactive |
| Tbca | 1 | 1.96 | 2.8 | 5601 | 6181 | inactive |
| Tbca | 2 | – | 24.2 | 351 | 5630 | inactive |
| Mocs1 | 1 | 2.2 | 2.63 | 6361 | 6415 | inactive |
| CG8321 | 1 | 8.13 | 23 | 5940 | 6087 | inactive |
| Trp1 | 1 | 4.7 | 13.8 | 5979 | 5771 | inactive |
| Trp1 | 2 | 1.04 | 3.53 | 6859 | 6340 | inactive |
| Lcp65Ag3 + Lcp65Ag2 + Lcp65Ag1 | 1 | 3.05 | 3.82 | 6123 | 5687 | inactive |
| Lcp65Ag3 + Lcp65Ag2 + Lcp65Ag1 | 2 | 2.03 | 4.13 | 5961 | 5974 | inactive |
| CRIF | 1 | 6.92 | 7.59 | 4521 | 4837 | inactive |
| CRIF | 2 | 6.79 | 2.85 | 4712 | 5641 | inactive |

Just “infection score, replicate 2” (7 entries from above):
Mocs1 = 2.63
CG8321 = 23
Trp1 #1 = 13.8
Trp1 #2 = 3.53
Lcp65Ag3 + Lcp65Ag2 + Lcp65Ag1 #1 = 3.82
Lcp65Ag3 + Lcp65Ag2 + Lcp65Ag1 #2 = 4.13
CRIF #1 = 7.59

The listing continues.
| target | reagent | infection score, replicate 1 | infection score, replicate 2 | cell count, replicate 1 | cell count, replicate 2 | Outcome |
| --- | --- | --- | --- | --- | --- | --- |
| CG8611 | 1 | 3.19 | 0.7 | 6673 | 6585 | inactive |
| CG8611 | 2 | 4.2 | 9.27 | 6138 | 6027 | inactive |
| mkg-p + Tpt | 1 | 4.81 | 9.5 | 6365 | 5504 | inactive |
| CG33170 | 1 | 3.02 | 1.5 | 6457 | 6940 | inactive |
| AOX4 | 1 | 2.47 | 4.34 | 6241 | 6643 | inactive |
| AOX4 | 2 | 8.75 | 5.67 | 4969 | 5781 | inactive |
| e(r) | 1 | 2.18 | 1.34 | 6427 | 6267 | inactive |
| CG10086 | 1 | 8.03 | 8.07 | 4879 | 5850 | inactive |
| sqh | 1 | 2.78 | 2.87 | 5894 | 6068 | inactive |
| sqh | 2 | 0.8 | 1.69 | 6521 | 6224 | inactive |
| SmydA-5 | 1 | 17.4 | 5.11 | 4469 | 6869 | inactive |
| SmydA-5 | 2 | 13.9 | 19 | 5415 | 6059 | inactive |
| TER94 | 1 | 1.84 | 4.36 | 653 | 528 | inactive |
| TER94 | 2 | 17 | 6.6 | 5079 | 5776 | inactive |
| ifc | 1 | 0.63 | 2.19 | 6052 | 5802 | inactive |
| CG34125 | 1 | 0.57 | 1.9 | 6641 | 5792 | inactive |
| CG6527 | 1 | 1.25 | 2.41 | 6075 | 5843 | inactive |
| CG8209 | 1 | 3.49 | 3.79 | 5696 | 5621 | inactive |
| CG8209 | 2 | – | 6 | 443 | 1267 | inactive |
| CG32683 | 1 | 12.6 | 8.91 | 1241 | 2357 | inactive |
| CG32683 | 2 | 8.51 | 8.67 | 5679 | 5884 | inactive |
| CG32683 | 3 | 18.3 | 5.62 | 3516 | 997 | inactive |
| CG32683 | 4 | 5.6 | – | 928 | 379 | inactive |
| capt | 1 | 5.01 | 4.2 | 6152 | 6925 | inactive |
| capt | 2 | 2.13 | 1.59 | 5689 | 5960 | inactive |
| capt | 3 | 34.7 | 8.68 | 5468 | 7006 | inactive |
| capt | 4 | 17.1 | 27.7 | 5495 | 5450 | inactive |
| CG15140 | 1 | 8.27 | 3.7 | 6564 | 6276 | inactive |
| Bdp1 | 1 | 7.72 | 7.01 | 6266 | 6292 | inactive |
| Bdp1 | 2 | 1.8 | 1.89 | 1386 | 1847 | inactive |
| Obp58d | 1 | 8.66 | 7.94 | 6607 | 6599 | inactive |
| CG11369 | 1 | 16.3 | 9.2 | 5407 | 5698 | inactive |
| Vm26Ac | 1 | 5.59 | 10.1 | 5978 | 6077 | inactive |
| Vm26Ac | 2 | 7.15 | 1.86 | 6324 | 6717 | inactive |
